Vif 1203: effect of single changes on growth against APOBEC3G

From the data files of Langley et al. 2025, preprint, doi:10.1101/2025.10.20.683452.

Scanned stretch, residues 12 to 115 of Vif from HIV-1 1203 (a subtype B primary isolate):
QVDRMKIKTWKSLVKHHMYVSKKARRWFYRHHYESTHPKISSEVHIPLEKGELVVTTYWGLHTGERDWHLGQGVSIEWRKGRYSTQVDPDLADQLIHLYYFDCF

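Pooled viruses with one designed change each in Vif went through two 72 h rounds in SupT1 cells expressing APOBEC3G. Frequencies after the second round, in three biological replicates, were compared with the merged pool after the first round. Changes do not touch integrase, since the pol overlap was removed.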

Scale: log2 enrichment, wild type = 0; negative values mean that the variant was depleted. Each entry names the wild-type residue, its position and the residue put in its place. The median of three replicates is given, with the replicates in brackets. Input reads are the counts in the merged round-one pool, before selection.

{"mutation": "T74E", "input reads": "285", "median log2 enrichment": "-3.07 (-3.91 -3.07 -1.88)"}
{"mutation": "T74F", "input reads": "187", "median log2 enrichment": "2.33 (2.57 2.33 -1.44)"}
{"mutation": "T74H", "input reads": "24", "median log2 enrichment": "1.32 (-0.86 5.69 1.32)"}
{"mutation": "T74I", "input reads": "624", "median log2 enrichment": "0.36 (1.55 0.09 0.36)"}
{"mutation": "T74K", "input reads": "298", "median log2 enrichment": "-2.88 (-2.88 -3.14 -1.34)"}
{"mutation": "T74L", "input reads": "23", "median log2 enrichment": "0.28 (0.05 5.77 0.28)"}
{"mutation": "T74N", "input reads": "124", "median log2 enrichment": "-2.72 (-2.72 -0.05 -3.35)"}
{"mutation": "T74P", "input reads": "224", "median log2 enrichment": "-1.54 (-2.92 -1.54 2.14)"}
{"mutation": "T74Q", "input reads": "377", "median log2 enrichment": "-0.09 (-0.09 -2.18 3.43)"}
{"mutation": "T74R", "input reads": "38", "median log2 enrichment": "2.12 (0.81 4.85 2.12)"}
{"mutation": "T74V", "input reads": "152", "median log2 enrichment": "-2.46 (-3.49 -2.46 -2.42)"}
{"mutation": "G75D", "input reads": "24", "median log2 enrichment": "0.18 (5.61 0.18 0.17)"}
{"mutation": "G75H", "input reads": "422", "median log2 enrichment": "-1.99 (-1.28 -3.19 -1.99)"}
{"mutation": "G75I", "input reads": "192", "median log2 enrichment": "-1.70 (-2.26 2.56 -1.70)"}
{"mutation": "G75Q", "input reads": "495", "median log2 enrichment": "-1.76 (-2.89 1.13 -1.76)"}
{"mutation": "G75R", "input reads": "74", "median log2 enrichment": "3.47 (-0.89 3.76 3.47)"}
{"mutation": "G75S", "input reads": "25", "median log2 enrichment": "0.11 (-1.67 5.37 0.11)"}
{"mutation": "G75T", "input reads": "235", "median log2 enrichment": "-3.93 (-4.87 -3.93 -2.73)"}
{"mutation": "G75V", "input reads": "29", "median log2 enrichment": "0.27 (-1.88 5.02 0.27)"}
{"mutation": "E76A", "input reads": "20", "median log2 enrichment": "0.22 (0.22 5.59 -0.07)"}
{"mutation": "E76D", "input reads": "166", "median log2 enrichment": "-2.80 (-2.80 -2.93 -2.25)"}
{"mutation": "E76F", "input reads": "957", "median log2 enrichment": "-2.02 (-2.02 -2.29 -1.96)"}
{"mutation": "E76H", "input reads": "316", "median log2 enrichment": "-2.02 (-2.51 -2.02 -1.13)"}
{"mutation": "E76I", "input reads": "764", "median log2 enrichment": "-1.55 (-1.98 2.40 -1.55)"}
{"mutation": "E76Q", "input reads": "49", "median log2 enrichment": "-2.41 (-4.22 -2.41 -1.34)"}
{"mutation": "E76T", "input reads": "212", "median log2 enrichment": "0.83 (1.15 0.62 0.83)"}
{"mutation": "E76V", "input reads": "17", "median log2 enrichment": "0.64 (-1.14 5.79 0.64)"}
{"mutation": "E76Y", "input reads": "19", "median log2 enrichment": "1.38 (-1.29 4.85 1.38)"}
{"mutation": "R77A", "input reads": "380", "median log2 enrichment": "-2.57 (-3.08 -2.57 -2.34)"}
{"mutation": "R77E", "input reads": "176", "median log2 enrichment": "-3.05 (-3.73 -3.05 -1.58)"}
{"mutation": "R77G", "input reads": "21", "median log2 enrichment": "0.89 (0.89 -1.23 3.28)"}
{"mutation": "R77P", "input reads": "58", "median log2 enrichment": "3.95 (-1.29 4.21 3.95)"}
{"mutation": "R77T", "input reads": "25", "median log2 enrichment": "0.12 (-0.09 5.43 0.12)"}
{"mutation": "R77V", "input reads": "29", "median log2 enrichment": "-1.89 (-1.89 0.63 -2.90)"}
{"mutation": "R77W", "input reads": "234", "median log2 enrichment": "-1.37 (-0.58 -2.81 -1.37)"}
{"mutation": "D78H", "input reads": "20", "median log2 enrichment": "1.12 (1.12 5.04 0.77)"}
{"mutation": "D78I", "input reads": "269", "median log2 enrichment": "-2.16 (-2.16 -2.82 -1.48)"}
{"mutation": "D78L", "input reads": "447", "median log2 enrichment": "-2.61 (-2.66 -2.61 -1.57)"}
{"mutation": "D78N", "input reads": "22", "median log2 enrichment": "2.32 (2.32 0.23 3.77)"}
{"mutation": "D78P", "input reads": "1480", "median log2 enrichment": "-2.35 (-2.32 -2.57 -2.35)"}
{"mutation": "D78S", "input reads": "292", "median log2 enrichment": "-2.90 (-2.90 -2.39 -3.07)"}
{"mutation": "D78T", "input reads": "602", "median log2 enrichment": "-2.80 (-2.80 -3.04 -1.55)"}
{"mutation": "D78W", "input reads": "16", "median log2 enrichment": "2.66 (3.23 -2.49 2.66)"}
{"mutation": "D78Y", "input reads": "51", "median log2 enrichment": "0.91 (2.71 -0.23 0.91)"}
{"mutation": "W79C", "input reads": "68", "median log2 enrichment": "0.61 (0.61 -4.50 1.30)"}
{"mutation": "W79H", "input reads": "18", "median log2 enrichment": "0.08 (-2.78 2.67 0.08)"}
{"mutation": "W79I", "input reads": "204", "median log2 enrichment": "-1.46 (0.09 -1.83 -1.46)"}
{"mutation": "W79N", "input reads": "275", "median log2 enrichment": "-2.43 (-2.29 -2.81 -2.43)"}
{"mutation": "W79Q", "input reads": "20", "median log2 enrichment": "-0.06 (-0.61 5.55 -0.06)"}
{"mutation": "W79S", "input reads": "167", "median log2 enrichment": "-2.62 (-3.64 -2.62 -2.25)"}
{"mutation": "W79V", "input reads": "301", "median log2 enrichment": "-2.18 (-2.72 -2.00 -2.18)"}
{"mutation": "W79Y", "input reads": "16", "median log2 enrichment": "1.39 (-1.03 5.55 1.39)"}

The last 6 entries again:

{"mutation": "W79I", "input reads": "204", "median log2 enrichment": "-1.46 (0.09 -1.83 -1.46)"}
{"mutation": "W79N", "input reads": "275", "median log2 enrichment": "-2.43 (-2.29 -2.81 -2.43)"}
{"mutation": "W79Q", "input reads": "20", "median log2 enrichment": "-0.06 (-0.61 5.55 -0.06)"}
{"mutation": "W79S", "input reads": "167", "median log2 enrichment": "-2.62 (-3.64 -2.62 -2.25)"}
{"mutation": "W79V", "input reads": "301", "median log2 enrichment": "-2.18 (-2.72 -2.00 -2.18)"}
{"mutation": "W79Y", "input reads": "16", "median log2 enrichment": "1.39 (-1.03 5.55 1.39)"}

The scan is noisy: the rank correlation of replicates is about 0.4 to 0.65, and variants with under about 50 input reads tend to read too high. Some changes are missing from the data or left out. The authors note that some positive scores may be noise, and some enriched variants failed when tested singly.